Experimental data as given in US20140294925A1 (priority 2013, published 2014).

Test system: multidrug-resistant C. difficile ATCC BAA1382 (MDR-CD)

ramoplanin
MIC (comb.): 0.0125 µg/mL
MIC for ramoplanin: 0.0125 µg/mL
